PubChem BioAssay AID504761 – Drosophila RNAi Screening Center – 2011
The deposit covers about 22,000 reagents; this is a random part of those with a known target gene and a result. Of all reagents, 116 (0.52%) were called active. 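Calls depend on retest data that are not deposited; infection was ranked per plate without normalising between plates; the unit of the infection score is not given.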 Reagents against one gene are numbered here. A plus sign joins genes that one reagent is predicted to hit. Not all columns of the deposit are shown. Not stated in the record: the amount of reagent, the time to read-out.

Aim: 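Fly genes whose silencing reduces dengue virus type 2 infection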 (primary screen)
System: D.Mel-2 cells from Drosophila
Reagent: long dsRNA against Drosophila genes
Conditions: infection with dengue virus type 2; dose and infection time not stated
Measured: 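Per well on two replicate plates, imaging gave the percent of cells positive for viral envelope protein, ranked by infection, and a nuclear count of cells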
Direction: infection score: higher = more virus-infected cells
Hit rule: 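Low infection ranks in the two replicates (chance level up to 0.065) followed by a retest with a 1.5-fold or larger significant decrease, p below 0.05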
Calls: active = confirmed: knock-down lowers infection; inactive = not picked or not confirmed

infection score, replicate 1, by target gene and reagent
Dp (GeneID 36461): #1 22.6 inactive
SREBP (GeneID 40155): #1 0.2 inactive
CG42662 + CG30080: #1 3.61 inactive
CG18765 (GeneID 59149): #1 4.63 inactive
ebd1 (GeneID 38082): #1 8.37 inactive; #2 27.1 inactive
CG13562 (GeneID 37797): #1 12.3 inactive; #2 9.61 inactive
CG15822 (GeneID 38273): #1 4.89 inactive; #2 3.83 inactive
lbm (GeneID 35623): #1 2.38 inactive

2 of these entries, set out differently:
{"target gene":"ebd1 (GeneID 38082)","reagent":2,"infection score, replicate 1":27.1,"Call":"inactive"}
{"target gene":"CG13562 (GeneID 37797)","reagent":1,"infection score, replicate 1":12.3,"Call":"inactive"}

Further records:
infection score, replicate 1, by target gene and reagent
CG14221 (GeneID 32961): #1 4.2 inactive
CG9705 (GeneID 39875): #1 4.03 inactive
CG11333 (GeneID 43714): #1 3.3 inactive
CG13962 (GeneID 35270): #1 11.3 inactive; #2 28.4 inactive
CG1907 (GeneID 43483): #1 6.38 inactive
Got1 (GeneID 36782): #1 9.67 inactive; #2 6.16 inactive
Mcm10 (GeneID 35390): #1 16 inactive; #2 4.35 inactive
CG15219 (GeneID 49992): #1 2.58 inactive
CG14893 (GeneID 42023): #1 5.52 inactive
